The values that follow come from ChEMBL document CHEMBL3102714 (J Med Chem, 2013).

Chains of the proteins cited; added tags and fusions are not shown. Residues count along the entry.
UniProt P04757, 26-499 limits assumed: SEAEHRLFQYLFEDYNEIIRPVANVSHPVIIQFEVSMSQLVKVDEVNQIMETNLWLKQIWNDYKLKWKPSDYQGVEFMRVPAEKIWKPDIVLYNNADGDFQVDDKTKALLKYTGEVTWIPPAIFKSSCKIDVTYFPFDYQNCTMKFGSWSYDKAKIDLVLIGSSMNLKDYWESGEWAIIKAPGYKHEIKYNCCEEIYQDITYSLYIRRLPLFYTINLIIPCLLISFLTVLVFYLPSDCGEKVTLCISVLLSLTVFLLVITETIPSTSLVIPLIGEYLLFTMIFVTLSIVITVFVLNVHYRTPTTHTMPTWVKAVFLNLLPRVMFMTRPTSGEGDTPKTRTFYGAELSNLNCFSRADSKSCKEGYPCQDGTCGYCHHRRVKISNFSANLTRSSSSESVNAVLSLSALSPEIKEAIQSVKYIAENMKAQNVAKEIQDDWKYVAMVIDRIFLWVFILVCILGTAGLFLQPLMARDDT
UniProt P12390, 25-500 limits assumed: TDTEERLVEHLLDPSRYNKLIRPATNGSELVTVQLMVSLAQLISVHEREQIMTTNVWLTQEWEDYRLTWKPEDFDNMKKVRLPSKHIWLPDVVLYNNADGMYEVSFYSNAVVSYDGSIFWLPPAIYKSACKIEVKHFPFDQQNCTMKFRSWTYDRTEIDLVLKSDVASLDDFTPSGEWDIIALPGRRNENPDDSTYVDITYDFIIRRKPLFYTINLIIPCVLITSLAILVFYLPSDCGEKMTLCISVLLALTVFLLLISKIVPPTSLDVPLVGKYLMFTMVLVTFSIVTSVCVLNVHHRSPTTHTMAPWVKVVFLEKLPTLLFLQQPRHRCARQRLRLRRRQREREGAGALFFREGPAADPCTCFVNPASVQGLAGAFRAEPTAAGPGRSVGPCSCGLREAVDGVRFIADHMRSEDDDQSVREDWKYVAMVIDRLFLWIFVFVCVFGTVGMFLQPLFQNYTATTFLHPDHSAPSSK
UniProt P12391, 31-464 limits assumed: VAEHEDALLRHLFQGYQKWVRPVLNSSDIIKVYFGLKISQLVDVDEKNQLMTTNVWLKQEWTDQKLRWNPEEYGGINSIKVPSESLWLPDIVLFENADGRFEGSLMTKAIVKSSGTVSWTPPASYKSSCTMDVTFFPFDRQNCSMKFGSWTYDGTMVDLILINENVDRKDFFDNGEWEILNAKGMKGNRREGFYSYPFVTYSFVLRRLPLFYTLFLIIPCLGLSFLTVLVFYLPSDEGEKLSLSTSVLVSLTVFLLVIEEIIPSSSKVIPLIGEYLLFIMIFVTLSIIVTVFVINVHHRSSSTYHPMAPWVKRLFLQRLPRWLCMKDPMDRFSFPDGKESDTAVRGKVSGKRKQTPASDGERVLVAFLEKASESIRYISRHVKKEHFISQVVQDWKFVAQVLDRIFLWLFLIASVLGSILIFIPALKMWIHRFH
UniProt P43143, 31-493 limits assumed: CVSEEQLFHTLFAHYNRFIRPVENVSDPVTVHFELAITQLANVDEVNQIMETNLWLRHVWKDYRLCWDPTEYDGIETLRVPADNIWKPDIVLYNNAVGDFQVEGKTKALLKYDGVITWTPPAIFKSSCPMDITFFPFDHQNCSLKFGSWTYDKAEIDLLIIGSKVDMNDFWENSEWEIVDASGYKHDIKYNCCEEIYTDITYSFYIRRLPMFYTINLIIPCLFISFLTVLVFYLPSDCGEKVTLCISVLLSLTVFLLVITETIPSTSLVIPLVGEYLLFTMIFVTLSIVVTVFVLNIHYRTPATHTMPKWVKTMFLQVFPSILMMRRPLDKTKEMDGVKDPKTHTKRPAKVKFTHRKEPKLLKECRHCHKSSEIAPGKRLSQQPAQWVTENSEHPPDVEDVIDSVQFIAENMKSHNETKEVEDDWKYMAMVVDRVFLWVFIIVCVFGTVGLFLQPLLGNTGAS

The term pIC50 denotes the IC50 on a negative log10 scale, so that one unit is a factor of ten.

SMILES strings stand for the structures. pIC50: −log10 of the molar value.

This assay has as its target Nicotinic acetylcholine receptor alpha6/alpha3/beta2/beta3 (Rattus norvegicus, UniProt P04757+P12390+P12391+P43143). Put plainly: Antagonist activity at Sprague-Dawley rat alpha6/alpha3beta2beta3 nAChR expressed in Xenopus oocytes assessed as inhibition of ACh-induced current by voltage clamp electrophysiology method.

As to `CC[C@H](C)[C@@H]1NC(=O)[C@H](CCC(=O)O)NC(=O)[C@@H]2CCCN2C(=O)[C@H](Cc2cnc[nH]2)NC(=O)[C@H](CC(=O)O)NC(=O)[C@H](Cc2ccc(O)cc2)NC(=O)[C@H](CC(N)=O)NC(=O)[C@@H]2CSSC[C@H](NC(=O)CN)C(=O)N[C@@H](CSSC[C@@H](C(N)=O)NC1=O)C(=O)N[C@@H](CO)C(=O)N[C@@H](CC(=O)O)C(=O)N1CCC[C@H]1C(=O)N[C@@H](CCCNC(=N)N)C(=O)N2`, the pIC50 was 6.85.
